Measured values from several laboratories, pooled; numbers as filed in NIAID ChemDB.

All rows: tests in culture; organism: Cryptococcus neoformans; endpoint: MIC50

Rows are shuffled and stem from different studies.

compound	method	strain	value
CC[C@@H]([C@H](C)O)n1ncn(-c2ccc(N3CCN(c4ccc(OC[C@@H]5CO[C@@](Cn6cncn6)(c6ccc(F)cc6F)C5)cc4)CC3)cc2)c1=O	-	10 strains	0.25 µg/mL
C=C1CO[C@H]2[C@@H](C)OC(OC[C@@]34C[C@H]5[C@H](C)CC[C@@H]5[C@@]5(C=O)C[C@@H]3C=C(C(C)C)[C@@]45C(=O)O)C[C@@H]12	-	15 strains (serotype B)	1 µg/mL
COc1ccc(-c2c3c(N)c4c(nc3nc3c2c(C)nn3-c2ccccc2)CCCC4)cc1	broth dilution / absorbance	ATCC 32264	125 µg/mL
CCC(C)n1ncn(-c2ccc(N3CCN(c4ccc(OC[C@H]5CO[C@](Cn6cncn6)(c6ccc(Cl)cc6Cl)O5)cc4)CC3)cc2)c1=O	-	-	0.0059 µg/mL
CCC(C)n1ncn(-c2ccc(N3CCN(c4ccc(OC[C@@H]5CO[C@@](Cn6cncn6)(c6ccc(F)cc6F)O5)cc4)CC3)cc2)c1=O	-	9 strains	≤0.015 µg/mL
COc1cc(C2=C(c3ccc(F)cc3F)COC2=O)ccc1OCC(O)(Cn1cncn1)c1ccc(F)cc1F	broth dilution	ATCC 34664	8 µg/mL
COc1cc(O)c2c(c1)C(=O)c1c(cc3c(c1O)-c1c(cc(C)c(C(=O)NC(CO)C(=O)O)c1O)[C@H](OC1OC(C)C(O)C(OC4OCC(O)C(O)C4O)C1O)C3O)C2=O	-	15 isolates	2 µg/mL
Cc1ccc(-c2c3c(N)c4c(nc3nc3c2c(C)nn3-c2ccccc2)CCC4)cc1	broth dilution / absorbance	ATCC 32264	7.8 µg/mL
CCC(C)n1ncn(-c2ccc(N3CCN(c4ccc(OC[C@H]5CO[C@](Cn6cncn6)(c6ccc(Cl)cc6Cl)O5)cc4)CC3)cc2)c1=O	-	42 isolates (HIV+)	0.06 µg/mL
C[C@@H](c1ncncc1F)[C@](O)(Cn1cncn1)c1ccc(F)cc1F	-	12 strains	0.06 µg/mL
Cn1nc(Cc2ccc(Cl)cc2)c2ccccc2c1=O	broth dilution	Clinical isolate (IM 031633)	7.8 µg/mL
Cc1nn(-c2ccccc2)c2nc3nc4c(c(N)c3c(-c3ccc(Cl)cc3)c12)CCCCC4	broth dilution / absorbance	ATCC 32264	125 µg/mL
CCC(C)n1ncn(-c2ccc(N3CCN(c4ccc(OC[C@H]5CO[C@](Cn6cncn6)(c6ccc(Cl)cc6Cl)O5)cc4)CC3)cc2)c1=O	-	32 isolates	0.008 µg/mL
CCC(C)n1ncn(-c2ccc(N3CCN(c4ccc(OC[C@H]5CO[C@](Cn6cncn6)(c6ccc(Cl)cc6Cl)O5)cc4)CC3)cc2)c1=O	-	5 isolates	0.25 µg/mL
O=C1O/C(=C\c2ccc(OCC(O)(Cn3cncn3)c3ccc(F)cc3F)cc2)C(c2ccc(F)cc2F)=C1c1ccc(Cl)cc1	broth dilution	ATCC 34664	4 µg/mL
Nc1[nH]c(=O)ncc1F	-	37 strains	8 µg/mL
Nc1ncccc1-c1cc(Cc2ccc(COc3ccccn3)cc2)no1	broth dilution	-	0.5 µg/mL
Cc1nn(-c2ccccc2)c2nc3nc4c(c(N)c3c(-c3ccc(Cl)cc3)c12)CCCC4	broth dilution / absorbance	ATCC 32264	250 µg/mL
COc1cc(/C=C2\SC(=S)NC2=O)ccc1OCC(O)(Cn1cncn1)c1ccc(F)cc1F	broth dilution	ATCC 34664	16 µg/mL

The first 3 rows once more:

compound,method,strain,value
CC[C@@H]([C@H](C)O)n1ncn(-c2ccc(N3CCN(c4ccc(OC[C@@H]5CO[C@@](Cn6cncn6)(c6ccc(F)cc6F)C5)cc4)CC3)cc2)c1=O,-,10 strains,0.25 µg/mL
C=C1CO[C@H]2[C@@H](C)OC(OC[C@@]34C[C@H]5[C@H](C)CC[C@@H]5[C@@]5(C=O)C[C@@H]3C=C(C(C)C)[C@@]45C(=O)O)C[C@@H]12,-,15 strains (serotype B),1 µg/mL
COc1ccc(-c2c3c(N)c4c(nc3nc3c2c(C)nn3-c2ccccc2)CCCC4)cc1,broth dilution / absorbance,ATCC 32264,125 µg/mL

Blank or dashed fields: not listed here. A number after MIC or MFC names an inhibition level or a share of isolates.